Patent publication US6686393B1, “Pharmaceutical compositions having antiviral activity against human cytomegalovirus” (Murdock International Corporation, priority 1990, dated 2004)

Columns and labels:
[1] = system: human cytomegalovirus (HCMV) strain AD-169; assay: Antiviral effect of different exposure times, HCMV strain AD-169 (plaque reduction); assay type: cell-based; conditions: 224 μg/ml left on the cells for short periods of time
[2] = system: MRC-5 cells; assay: Cytotoxicity (CD50) in the MRC-5 cells of the plaque reduction tests
[3] = system: human cytomegalovirus (HCMV), strain AD-169; assay: Antiviral test (plaque reduction) versus HCMV, strain AD-169, in MRC-5 cells; assay type: cell-based; conditions: Example 1; for Number of Plaques: average of two wells
[4] = system: murine cytomegalovirus, strain Smith MSGV; assay: Antiviral test (plaque reduction) versus murine cytomegalovirus, strain Smith MSGV, in 3T3 cells; assay type: cell-based; conditions: Example 8
[5] = system: HCMV, strain C8805-37 (DHPG-resistant); conditions: Example 3
[6] = system: 3T3 cells; assay: Cytotoxicity (CD50) in 3T3 cells of the MCMV plaque reduction test; conditions: Example 8

Substance: ganciclovir
- Anti-HCMV activity [1]: essentially no anti-HCMV activity
- CD50 ([2]; Example 3, cells exposed 4 days): >1000 µg/mL
- CD50 ([2]; Table 10 summary, DHPG resistant HCMV test): (>1000) μg/ml
- % Inhibition ([3]; 250 μg/ml): 100%
- Number of Plaques ([3]; 250 μg/ml): 0
- % Inhibition ([3]; 500 μg/ml): 100%
- Number of Plaques ([3]; 500 μg/ml): 0
- % Reduction ([4]; 0.32 μg/ml (row r14)): 0%
- Number of Plaques ([4]; 0.32 μg/ml (row r14)): 16
- % Reduction ([4]; 1.0 μg/ml): 42%
- Number of Plaques ([4]; 1.0 μg/ml): 13
- % Reduction ([4]; 3.2 μg/ml): 72%
- Number of Plaques ([4]; 3.2 μg/ml): 6
- % Reduction ([4]; 10 μg/ml): 96%
- Number of Plaques ([4]; 10 μg/ml): 1
- % Reduction ([4]; 31.6 μg/ml): 100%
- Number of Plaques ([4]; 31.6 μg/ml): 0
- % Reduction ([4]; 100 μg/ml): 100%
- Number of Plaques ([4]; 100 μg/ml): 0
- Percent Inhibition Compared to Controls ([5]; 0.32 μg/ml): 0%
- Percent Inhibition Compared to Controls ([5]; 1.0 μg/ml): 21%
- Percent Inhibition Compared to Controls ([5]; 3.2 μg/ml): 26%
- Percent Inhibition Compared to Controls ([5]; 10.0 μg/ml, cells exposed 4 days): 51%
- CD50 [6]: >100 µg/mL

Like-named read-outs stand apart in the source and are kept apart here.
